The values that follow come from US20230398207A1.

This assay addresses recombinant hACE2-Fc protein (GenScript) (human) (UniProt Q9BYF1).

As to “Recombinant SARS-CoV-2 spike protein containing only the ectodomain (S1S2) (from UniProt P0DTC2 14-1204) (other; other documents disagree on this pair)”, the EC50 (usually the concentration needed to bring the measured effect to its halfway point) worked out at 0.14 µg/mL.
